Data as given in US7186695B2, “Treatment of arthritis with arsenoxide compounds” (priority 2001, dated 2007).

Test system: BAE cells
Details: read-out: IC50 for viability, 24 hours

| Substance | IC50 |
| --- | --- |
| phenylarsenoxide | < 0.1 µM |
| a mixture of 4-(N-(6-(fluorescein-5-carboxamido)hexanoyl)amino)phenylarsenoxide and 4-(N-(6-(fluorescein-6-carboxamido)hexanoyl)amino)phenylarsenoxide | > 200 µM |
